# From patent US9481871B2, “Nucleic acid encoding a polpeptide having aminotransferase activity, vectors and host cells comprising the nucleic acid” (KANEKA CORPORATION, priority 2010, dated 2016)
# B1: TAT: polypeptide having transamination activity from Arthrobacter sp. KNK04-25; amino acid sequence SEQ ID NO: 1 (protein, listed as Arthrobacter sp.)
# chain: MSAITLESSLATFTRRFDVSAKLTELGKEVVPGGYSRNSFNFGPHAIYVESGDGAYISTVEGHRLLDLNNNFTVNVLGHNHPSVQRTLRGSIETGVSFGNPVALETELAQLLVERIPSIERVQFSCSASESCMSAVRVARAFTGRTKIAKFEGGYHGFTDPLQVSWHPDHDGDCGPDDAPKAIPDSGGIPAEDVANVVVLTQNDGEGTERILRAHASEIACVIVELESASGGLVTLEQDYVESLRELTSELGIVLIFDETVTLRAGYQGMQGDYGVAPDLTVMGKIIGGGFPLGAVGGSAEIMSVLESGLVSISGTHHGHKIALAAGISTMRELTQGAFDRLNGMATRVMEELNDWSSQRGSSFAVYGKGISHLAYGFMREPGLSIRTHRDYWRNFDGTGTQICSLELANRGFFPVARGDFSLSLPMSDDDITAFVETTKEIVTGIES
# Assay: Optimum pH of transamination activity
# Format: biochemical
molecule,measurement,setting,value
B1,pH at which transamination activity was the highest,pH 4.0 to 10 tested,7
same,pHs at which transamination activity of 70 or more was confirmed,relative to activity of 100 at pH 7.0,pH 7.0 and pH 8.0
